Anti-infective test results gathered from many reports (values: NIAID ChemDB through PubChem).

All rows: growth or infection tests; agent: Mycobacterium avium intracellulare; endpoint: MIC

Conditions beyond the fields shown may differ between rows. Blank or dashed fields: not listed here.

SMILES,strain or isolate,value
NC(=S)N=Nc1c(S)n(-c2ccccc2)c2ccccc12,CNCTC D39/93,125 µM
CCCCCCO/N=C1\[C@H](C)CC(C)(O)[C@H](O[C@@H]2O[C@H](C)C[C@H](N(C)C)[C@H]2O)[C@@H](C)[C@H](OC2C[C@@](C)(OC)[C@@H](O)[C@H](C)O2)[C@@H](C)C(=O)O[C@H](CC)[C@@](C)(O)[C@H](O)[C@H]1C,20066,3.13 µg/mL
NC(=O)c1cnccn1,ATCC 13950,>200 µg/mL
C#CCNC(=O)O[C@H]1C(O[C@@H]2[C@@H](C)[C@H](O[C@H]3C[C@@](C)(OC)[C@@H](OC(C)=O)[C@H](C)O3)[C@@H](C)C(=O)O[C@H](CC)[C@@](C)(O)[C@H](O)[C@@H](C)/C(=N/OCCCC3CCCCC3)[C@H](C)CC2(C)O)O[C@H](C)C[C@@H]1N(C)C,20075,0.2 µg/mL
C[C@@H](O)[C@H]1C(=O)N2C(C(=O)O)=C(SCCN=CN)C[C@H]12,CIPT 140310023,>10 µg/mL
CCCCCCCCCCO/N=C1\[C@H](C)CC(C)(O)[C@H](O[C@@H]2O[C@H](C)C[C@H](N(C)C)[C@H]2O)[C@@H](C)[C@H](OC2C[C@@](C)(OC)[C@@H](O)[C@H](C)O2)[C@@H](C)C(=O)O[C@H](CC)[C@@](C)(O)[C@H](O)[C@H]1C,20066,6.25 µg/mL
O=C(NNC1=NS(=O)(=O)c2ccccc2N1c1ccccc1)c1cnccn1,ATCC 13950,>16 µg/mL
CC[C@H]1OC(=O)[C@H](C)[C@@H](O[C@H]2C[C@@](C)(OC)[C@@H](O)[C@H](C)O2)[C@H](C)[C@@H](O[C@@H]2O[C@H](C)C[C@H](N(C)C)[C@H]2O)[C@](C)(OC)C[C@@H](C)C(=O)[C@H](C)[C@@H](O)[C@]1(C)O,N-260,6.25 µg/mL
CC[C@H]1OC(=O)[C@H](C)[C@@H](OC2C[C@@](C)(OC)[C@@H](O)[C@H](C)O2)[C@H](C)[C@@H](O[C@@H]2O[C@H](C)C[C@H](N(C)C)[C@H]2O)C(C)(O)C[C@@H](C)/C(=N\OCCSc2ccccc2)[C@H](C)[C@@H](O)[C@]1(C)O,20066,3.13 µg/mL
CO[C@H]1/C=C/O[C@@]2(C)Oc3c(C)c(=O)c4c(O)c(c5oc6cc(N(C)C)ccc6nc5c4c3C2=O)NC(=O)/C(C)=C\C=C\[C@H](C)[C@H](O)[C@@H](C)[C@@H](O)[C@@H](C)[C@H](OC(C)=O)[C@@H]1C,Shibazaki,1.25 µg/mL
N/C(=N\N=C\c1nc2ccccc2o1)c1cnccn1,-,>16 µg/mL
CO[C@H]1/C=C/O[C@@]2(C)Oc3c(C)c(O)c4c(=O)c(c5oc6cc(N7CCN(CC(C)C)CC7)cc(=O)c6nc5c4c3=C2O)NC(=O)/C(C)=C\C=C\[C@H](C)[C@H](O)[C@@H](C)[C@@H](O)[C@@H](C)[C@H](OC(C)=O)[C@@H]1C,N-486 (HIV-),0.016 µg/mL
COc1ccc2c(c1)N(C[C@H](C)CN(C)C)c1ccccc1S2,R 6550,50 µg/mL
O=C1C(=S)N(Cc2ccccc2)c2ccccc21,CNCTC D38/92,63 µM
CC1COc2c(N3CCN(C)CC3)c(F)cc3c(=O)c(C(=O)O)cn1c23,23 strains,>10 µg/mL
CCS/C(N)=N/N=C/c1ccc2ccccc2n1,CNCT D39/93,>1000 µM
CCCCCCCCCCCCCCCCSc1ncnc2ccccc12,D 38/92,>1000 µM
CC[C@H]1OC(=O)[C@H](C)[C@@H](O[C@H]2C[C@@](C)(OC)[C@@H](OC(C)=O)[C@H](C)O2)[C@H](C)[C@@H](OC2O[C@H](C)C[C@H](N(C)C)[C@H]2OC(=O)NCC(=O)NC)C(C)(O)C[C@@H](C)/C(=N\OCCCC2CCCCC2)[C@H](C)[C@@H](O)[C@]1(C)O,20075,1.56 µg/mL
CC1(C)S[C@@H]2[C@H](NC(=O)C(C(=O)O)c3ccccc3)C(=O)N2[C@H]1C(=O)O,CIPT 140310034,25 µg/mL
CC[C@H]1OC(=O)[C@H](C)[C@@H](OC2C[C@@](C)(OC)[C@@H](O)[C@H](C)O2)[C@H](C)[C@@H](O[C@@H]2O[C@H](C)C[C@H](N(C)C)[C@H]2O)C(C)(O)C[C@@H](C)/C(=N\OCCCCCc2ccccc2)[C@H](C)[C@@H](O)[C@]1(C)O,20066,3.13 µg/mL
CCCCCCCCCCCCCCN(C)C(=O)O[C@H]1C(O[C@@H]2[C@@H](C)[C@H](O[C@H]3C[C@@](C)(OC)[C@@H](OC(C)=O)[C@H](C)O3)[C@@H](C)C(=O)O[C@H](CC)[C@@](C)(O)[C@H](O)[C@@H](C)/C(=N/OCCCC3CCCCC3)[C@H](C)CC2(C)O)O[C@H](C)C[C@@H]1N(C)C,20067,0.2 µg/mL
O=C(c1ccncc1)N(/N=C/c1cccc(Oc2ccccc2)c1)C(=O)c1cnccn1,ATCC 13950,>16 µg/mL
CO[C@H]1/C=C/O[C@@]2(C)Oc3c(C)c(O)c4c(O)c(c(/C=N/N5CCN(C6CCCC6)CC5)c(O)c4c3C2=O)NC(=O)/C(C)=C\C=C\[C@H](C)[C@H](O)[C@@H](C)[C@@H](O)[C@@H](C)[C@H](OC(C)=O)[C@@H]1C,1023,1 µg/mL
CN1C(NNC(=O)c2ccc(Cl)nc2)=NS(=O)(=O)c2ccccc21,ATCC 13950,>16 µg/mL
c1ccc(CCSc2ncnc3ccccc23)cc1,D 38/92,32 µM
CN1C(=S)C(=O)c2ccccc21,CNCTC D38/92,32 µM
CC[C@@H](C)[C@H](O)[C@H](C)[C@@H](C/C=C/C=C/C(N)=O)OC(=O)/C=C/c1ccccc1,-,>100 µg/mL
CN1C(NC(=O)c2ccc(Cl)nc2)=NS(=O)(=O)c2cc(Cl)ccc21,ATCC 13950,>16 µg/mL
CCSc1ncnc2ccccc12,D 38/92,>1000 µM
CCS/C(N)=N/N=C/c1nc2ccccc2n1C,CNCT D39/93,>1000 µM
O=C(NC1=NS(=O)(=O)c2ccccc2N1c1ccccc1)c1ccc(Cl)nc1,ATCC 13950,>16 µg/mL
CCCCCCCCNC(=O)O[C@H]1C(O[C@@H]2[C@@H](C)[C@H](O[C@H]3C[C@@](C)(OC)[C@@H](OC(C)=O)[C@H](C)O3)[C@@H](C)C(=O)O[C@H](CC)[C@@](C)(O)[C@H](O)[C@@H](C)/C(=N/OCCCC3CCCCC3)[C@H](C)CC2(C)O)O[C@H](C)C[C@@H]1N(C)C,20066,0.2 µg/mL
C[C@@H]1CN(c2c(F)c(N)c3c(=O)c(C(=O)O)cn(C4CC4)c3c2F)C[C@H](C)N1,ATCC 13950,0.3 µg/mL
OCCN1CCN(CCC=C2c3ccccc3Sc3ccc(Cl)cc32)CC1,V 915,12.5 µg/mL
Clc1ccc2c(c1)nc1cc(Nc3ccccc3)c(=NC3CCCCC3)cc-1n2-c1ccccc1,TB60,1 µg/mL
O=C1C(=S)N(c2ccccc2)c2ccccc21,CNCTC D38/92,32 µM
CCS/C(N)=N/N=C/c1ccc2cc(Cl)ccc2n1,CNCTC D38/92,63 µM
N/C(=N\N=C\c1nc2ccccc2o1)c1ccccn1,-,>16 µg/mL
CC[C@H]1OC(=O)[C@H](C)[C@@H](OC2C[C@@](C)(OC)[C@@H](O)[C@H](C)O2)[C@H](C)[C@@H](O[C@@H]2O[C@H](C)C[C@H](N(C)C)[C@H]2O)C(C)(O)C[C@@H](C)/C(=N\OCCN(C)c2ccccc2)[C@H](C)[C@@H](O)[C@]1(C)O,20066,1.56 µg/mL
OCNC(=S)c1cnccn1,ATCC 13950,100 µg/mL
O=C(c1ccncc1)N(NCc1cccc([N+](=O)[O-])c1)C(=O)c1cnccn1,ATCC 13950,8 µg/mL
c1ccc(CSc2ncnc3ccccc23)cc1,D 38/92,63 µM
CCCCCCCCO/N=C1\[C@H](C)CC(C)(O)[C@H](O[C@@H]2O[C@H](C)C[C@H](N(C)C)[C@H]2O)[C@@H](C)[C@H](OC2C[C@@](C)(OC)[C@@H](O)[C@H](C)O2)[C@@H](C)C(=O)O[C@H](CC)[C@@](C)(O)[C@H](O)[C@H]1C,20066,6.25 µg/mL
COc1cc(O)c2c(c1CC=C(C)C)O[C@H](c1c(CC=C(C)C)cc(OC)c(OC)c1CC=C(C)C)[C@@H](O)C2=O,ATCC 23068,>100 µg/mL
CCCCCCS/C(N)=N/N=C/c1ccc2ccccc2n1,CNCTC D38/92,63 µM
CC(=O)NC[C@H]1CN(c2ccc(N3CCN(c4ccc([N+](=O)[O-])s4)CC3)c(F)c2)C(=O)O1,F21/12,0.25 µg/mL
CCN1C(NNC(=O)c2cccnc2)=NS(=O)(=O)c2ccccc21,ATCC 13950,>16 µg/mL
CO[C@H]1/C=C/O[C@@]2(C)Oc3c(C)c(O)c4c(O)c(c5c(c4c3C2=O)NC2(CCN(CC(C)C)CC2)N=5)=NC(=O)/C(C)=C\C=C\[C@H](C)[C@H](O)[C@@H](C)[C@@H](O)[C@@H](C)[C@H](OC(C)=O)[C@@H]1C,N-481 (HIV-),0.25 µg/mL
N/C(=N\N=C\c1nc2cc(Cl)ccc2o1)c1cnccn1,-,>16 µg/mL
NNC(=O)c1ccncc1,N-846 (HIV-),4 µg/mL
O=C(c1ccncc1)N(NCc1cccc(Cl)c1)C(=O)c1cnccn1,ATCC 13950,8 µg/mL
CCN1C(NNC(=O)c2cnccn2)=NS(=O)(=O)c2ccccc21,ATCC 13950,8 µg/mL
Cc1onc(-c2ccccc2Cl)c1C(=O)N[C@@H]1C(=O)N2[C@@H]1SC(C)(C)[C@@H]2C(=O)O,CIPT 140310034,75 µg/mL
O=C(c1ccncc1)N(/N=C/c1ccco1)C(=O)c1cnccn1,ATCC 13950,>16 µg/mL
C[C@@H]1CN(c2c(F)c(N)c3c(=O)c(C(=O)O)cn(C4CC4)c3c2F)C[C@H](C)N1,N-809 (HIV-),2 µg/mL
OCCN1CCN(CC/C=C2/c3ccccc3Sc3ccc(C(F)(F)F)cc32)CC1,E 48067,12.5 µg/mL
CN1C(NNC(=O)c2cnccn2)=NS(=O)(=O)c2ccccc21,ATCC 13950,2 µg/mL
CO[C@H]1/C=C/O[C@@]2(C)Oc3c(C)c(=O)c4c(O)c(c5oc6cc(N7CCCC7)ccc6nc5c4c3C2=O)NC(=O)/C(C)=C\C=C\[C@H](C)[C@H](O)[C@@H](C)[C@@H](O)[C@@H](C)[C@H](OC(C)=O)[C@@H]1C,Shibazaki,1.25 µg/mL
CC(C)CSc1ncnc2ccccc12,D 38/92,125 µM
CC(C)N1C(NNC(=O)c2cnccn2)=NS(=O)(=O)c2ccccc21,ATCC 13950,>16 µg/mL

Repeating the final 6 entries:

{"SMILES": "C[C@@H]1CN(c2c(F)c(N)c3c(=O)c(C(=O)O)cn(C4CC4)c3c2F)C[C@H](C)N1", "strain or isolate": "N-809 (HIV-)", "value": "2 µg/mL"}
{"SMILES": "OCCN1CCN(CC/C=C2/c3ccccc3Sc3ccc(C(F)(F)F)cc32)CC1", "strain or isolate": "E 48067", "value": "12.5 µg/mL"}
{"SMILES": "CN1C(NNC(=O)c2cnccn2)=NS(=O)(=O)c2ccccc21", "strain or isolate": "ATCC 13950", "value": "2 µg/mL"}
{"SMILES": "CO[C@H]1/C=C/O[C@@]2(C)Oc3c(C)c(=O)c4c(O)c(c5oc6cc(N7CCCC7)ccc6nc5c4c3C2=O)NC(=O)/C(C)=C\\C=C\\[C@H](C)[C@H](O)[C@@H](C)[C@@H](O)[C@@H](C)[C@H](OC(C)=O)[C@@H]1C", "strain or isolate": "Shibazaki", "value": "1.25 µg/mL"}
{"SMILES": "CC(C)CSc1ncnc2ccccc12", "strain or isolate": "D 38/92", "value": "125 µM"}
{"SMILES": "CC(C)N1C(NNC(=O)c2cnccn2)=NS(=O)(=O)c2ccccc21", "strain or isolate": "ATCC 13950", "value": ">16 µg/mL"}